Three compounds from PubChem BioAssay AID504753 (Sanford-Burnham Center for Chemical Genomics, 2011) can be followed below.

This is a selection; strong and weak results do not stand in their true shares. Calls of active or inactive are those of the source.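 How the source made its calls: active means inhibition of at least 50% at 20 µM in any single replicate; inactive means the rest.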

This experiment has as its system glucose-6-phosphate dehydrogenase-6-phosphogluconolactonase (PfGluPho), Plasmodium falciparum 3D7. Put plainly: PfG6PD inhibitors, hit retest, confirmation, biochemical, fluorescence intensity, single concentration (AID 504753).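 Further: 0% = DMSO with substrate and 100% = DMSO lacking glucose-6-phosphate substrate.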 The note with it: recombinant PfGluPho, NADPH-diaphorase-resazurin fluorescence; at 20 µM; active compounds read high.
`C[N+]1=C2C=CC=CC=C2SC12C([N+](=O)[O-])=CC([N+](=O)[O-])=C[C-]2[N+](=O)[O-]` (stereo not drawn): the inhibition was inactive: 17.9%. As for `CN(C)C(=O)c1cc([N+](=O)[O-])cc2c1-c1c(cc([N+](=O)[O-])cc1[N+](=O)[O-])C2=O`, the inhibition was active: 99.2%.

With `O=P(Nc1nccs1)(c1ccccc1)c1nc2ccccc2s1` (stereo not drawn), the inhibition is inactive: 45.9%.
